Source: patent publication US20110178064A1, “SPIRO CONDENSED […] DERIVATIVES FOR USE AS ANTIBACTERIAL” (A[…]&D, priority 2007, published 2011)
pIC50: −log10 of the molar value. The structures given here were assigned with low confidence; some may be wrong.

Protein sequences, listed by entry. Tags and fused reporters are not part of them.
UniProt P0AES4, whole entry: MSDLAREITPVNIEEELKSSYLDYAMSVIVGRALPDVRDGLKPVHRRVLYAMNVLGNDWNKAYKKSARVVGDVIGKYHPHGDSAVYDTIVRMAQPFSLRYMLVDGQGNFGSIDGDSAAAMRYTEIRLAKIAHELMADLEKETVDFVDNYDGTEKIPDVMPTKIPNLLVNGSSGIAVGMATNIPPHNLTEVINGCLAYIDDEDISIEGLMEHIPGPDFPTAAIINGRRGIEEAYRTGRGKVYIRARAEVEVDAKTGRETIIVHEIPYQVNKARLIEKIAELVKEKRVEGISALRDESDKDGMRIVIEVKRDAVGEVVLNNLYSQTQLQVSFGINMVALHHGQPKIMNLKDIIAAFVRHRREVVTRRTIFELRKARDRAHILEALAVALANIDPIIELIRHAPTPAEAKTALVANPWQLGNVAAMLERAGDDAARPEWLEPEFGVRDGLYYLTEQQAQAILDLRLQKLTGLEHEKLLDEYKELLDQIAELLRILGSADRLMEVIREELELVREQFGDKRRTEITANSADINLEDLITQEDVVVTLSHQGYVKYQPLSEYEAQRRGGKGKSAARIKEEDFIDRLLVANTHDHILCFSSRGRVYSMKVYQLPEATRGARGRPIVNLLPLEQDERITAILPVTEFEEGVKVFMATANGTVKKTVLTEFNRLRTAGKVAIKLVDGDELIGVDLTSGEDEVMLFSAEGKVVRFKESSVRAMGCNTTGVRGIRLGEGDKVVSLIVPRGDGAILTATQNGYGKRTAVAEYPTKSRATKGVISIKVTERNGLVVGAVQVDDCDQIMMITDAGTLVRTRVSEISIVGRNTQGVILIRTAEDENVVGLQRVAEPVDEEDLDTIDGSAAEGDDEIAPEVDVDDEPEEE

Molecular target: Escherichia coli DNA gyrase A/B tetramer (Escherichia coli, UniProt P0AES4+P0AES6)
Test: DNA gyrase supercoiling activity fluorescence polarisation assay
Format: biochemical
Conditions: E. coli DNA gyrase supercoiling; asterisk: no IC50 obtained at or below the indicated concentration

SMILES: Cc1nc(C)c(-c2ccc3c(n2)CC2(C(=O)NC(=O)NC2=O)[C@H]2[C@H](C)O[C@H](C)CN32)s1 (relative stereo)
- pIC50: < 4.08
